A mixed list of measured activities; the numbers were collected in NIAID ChemDB.

All rows: whole-cell or culture tests; agent: HIV-1; cells: MT-4; read-out: EC50

Conditions beyond the fields shown may differ between rows. ECn is the concentration giving n% inhibition of infection, replication or growth. An empty or dashed field is not shown.

SMILES	strain or isolate	mutations	read by	conditions	value
Cc1cc2nc(-c3ccc4c(c3)c(N3CCN(CC5OCCO5)C3=O)nn4C)sc2c(-c2ccc(Cl)cc2)c1[C@H](OC(C)(C)C)C(=O)O	IIIB		luminescence		0.013 µM
COc1ccc(CN[C@@H](C(=O)N[C@H](C(=O)NCc2nc3ccccc3[nH]2)C(C)C)[C@H](O)[C@H](Cc2ccccc2)NC(=O)[C@@H](NC(=O)[C@@](C)(O)c2ccccc2)C(C)(C)C)cc1	IIIB		cytopathic effect / MTT		0.038 µM
CCOCCN1CCN(c2nn(C)c3ccc(-c4nc5cc(C)c([C@H](OC(C)(C)C)C(=O)O)c(-c6ccc(Cl)cc6)c5s4)cc23)CC1	IIIB		luminescence		0.485 µM
CC(C)=CCN1c2cc(Cl)cc3[nH]c(=S)n(c23)C[C@@H]1C		RT-D67N K70R T215Y K219Q			<0.05 µM
Cc1cn([C@H]2C[C@H](N=[N+]=[N-])[C@@H](CO)O2)c(=O)[nH]c1=O			cytopathic effect		0.7 µM
Cc1cn([C@H]2C[C@H](N=[N+]=[N-])[C@@H](CO)O2)c(=O)[nH]c1=O					0.0005 µg/mL
CNC(=O)[C@@H](NC(=O)[C@H](OCc1ccccc1)[C@H](O)[C@@H](O)[C@@H](OCc1ccccc1)C(=O)N[C@H](C(=O)NC)C(C)C)C(C)C			cytopathic effect		1.32 µM
COC(=O)[C@@H](NC(=O)Cc1ccccc1)[C@@H]1N[C@@H](C(=O)NC[C@@H](O)CN2C[C@H]3CCCC[C@H]3C[C@H]2C(=O)NC(C)(C)C)C(C)(C)S1	RF		cytopathic effect / MTT		3.9 µM
CNC(=O)c1cccc(CN2[C@H](COc3ccccc3)[C@H](O)[C@@H](O)[C@@H](COc3ccccc3)N(Cc3cccc(C(=O)NC)c3)S2(=O)=O)c1			cytopathic effect		13 µM
Cc1cn([C@H]2C[C@H](N=[N+]=[N-])[C@@H](COP(=O)(OCc3ccccc3)OCc3ccccc3)O2)c(=O)[nH]c1=O					0.98 µM
C1CNCCNCC(CCOCCOCCC2CNCCNCCCNCCNC2)CNCCNC1	RF		cytopathic effect / MTT		2.27 µM
CNC(=O)[C@@H](NC(=O)[C@H](OCc1ccc(/C=C/C(=O)OC)cc1)[C@H](O)[C@@H](O)[C@@H](OCc1ccc(/C=C/C(=O)OC)cc1)C(=O)N[C@H](C(=O)NC)C(C)C)C(C)C			cytopathic effect		2.58 µM
Cc1cc2nc(-c3ccc4c(c3)c(N3CC5(CCCC5)C3)nn4C)sc2c(-c2ccc(Cl)cc2)c1[C@H](OC(C)(C)C)C(=O)O	IIIB		luminescence		0.061 µM
COC(=O)[C@@H](NC(=O)[C@H](OCc1ccccc1)[C@H](O)[C@@H](O)[C@@H](OCc1ccccc1)C(=O)N[C@H](C(=O)OC)C(C)C)C(C)C			cytopathic effect		>56 µM
Cc1cc2nc(-c3ccc4c(c3)c(C3CCN(C5CC(O)C5)CC3)nn4C)sc2c(-c2ccc(Cl)cc2)c1[C@H](OC(C)(C)C)C(=O)O	IIIB		luminescence		0.021 µM
Cc1cn([C@H]2C[C@H](N=[N+]=[N-])[C@@H](COP(=O)(O)OCc3ccccc3)O2)c(=O)[nH]c1=O					0.014 µM
Cc1cc2nc(-c3ccc4c(c3)c(N3CCN(C5CC(O)C5)CC3)nn4C)sc2c(-c2ccc(Cl)cc2)c1[C@H](OC(C)(C)C)C(=O)O	IIIB		luminescence		0.018 µM
CC(C)CN(C[C@@H](O)[C@H](Cc1ccccc1)NC(=O)O[C@H]1CCOC1)S(=O)(=O)c1ccc(N)cc1	LAI		cytopathic effect / MTT		0.036 µM
CC(C)(C)NC(=O)[C@@H]1C[C@@H]2CCCC[C@@H]2CN1CC(O)CNC(=O)[C@@H]1N[C@@H]([C@H](NC(=O)Cc2ccccc2)C(=O)NCCNC(=O)CCCC[C@@H]2SC[C@@H]3NC(=O)N[C@@H]32)SC1(C)C	RF		cytopathic effect / MTT		18 µM
CNC(=O)C(NC(=O)[C@H](OCc1ccc(-c2cccc([N+](=O)[O-])c2)cc1)C(O)C(O)[C@@H](OCc1ccc(-c2cccc([N+](=O)[O-])c2)cc1)C(=O)NC(C(=O)NC)C(C)C)C(C)C			cytopathic effect		0.16 µM
CC(C)(C)NC(=O)[C@@H]1C[C@@H]2CCCC[C@@H]2CN1CC(O)CNC(=O)[C@@H]1N[C@@H]([C@H](NC(=O)Cc2ccccc2)C(=O)NCCNC(=O)OC(C)(C)C)SC1(C)C	RF		cytopathic effect / MTT		0.052 µM
CC(C)=CCC/C(C)=C/CC/C(C)=C/Cc1c(O)cc(C)c(C(=O)O)c1O					>40 µM
CN(C)c1ccc(CNC(=O)[C@@H](NC(=O)Cc2ccccc2)[C@@H]2N[C@@H](C(=O)NC[C@@H](O)CN3C[C@H]4CCCC[C@H]4C[C@H]3C(=O)NC(C)(C)C)C(C)(C)S2)cc1	RF		cytopathic effect / MTT		0.52 µM
C/C(CO)=C(/Br)Cn1cc(I)c(=O)[nH]c1=O					>100 µg/mL
c1cc(CN2CCCNCCNCCCNCC2)ccc1CN1CCCNCCNCCCNCC1	NL4-3				24.7 nM
C1CNCCNCCNCCN1	IIIB		cytopathic effect / MTT	4 d	>19.5 µM
CC(=O)Oc1ccc(/C=C/C(=O)O[C@H](C(=O)O)[C@H](OC(=O)/C=C/c2ccc(OC(C)=O)c(OC(C)=O)c2)C(=O)O)cc1OC(C)=O	NL4-3	AMD3100-resistant	cytopathic effect / MTT		>93 µM
Cc1cc2nc(-c3ccc4c(c3)c(C3CCN(C[C@H]5CCN5C)CC3)nn4C)sc2c(-c2ccc(Cl)cc2)c1[C@H](OC(C)(C)C)C(=O)O	IIIB		luminescence		0.011 µM
CNC(=O)C(NC(=O)[C@H](OCc1ccccc1)[C@H](O)[C@@H](O)[C@@H](OCc1ccccc1)C(=O)N[C@H](C(=O)NC)[C@@H](C)O)[C@@H](C)O			cytopathic effect		>80 µM
C/C(CO)=C(/Br)Cn1cc(C)c(=O)[nH]c1=O					>100 µg/mL
Cc1cn([C@H]2C[C@H](N=[N+]=[N-])[C@@H](CO)O2)c(=O)[nH]c1=O		NNRTI-resistant (RT V106A)			0.002 µM
Cc1ccnc(-c2cc(CN3CCCNCCNCCCNCC3)ccn2)c1	IIIB		cytopathic effect / MTT	4 d	>1.13 µM
CC(C)(C)NC(=O)[C@@H]1C[C@@H]2CCCC[C@@H]2CN1C[C@H](O)CNC(=O)[C@@H]1N[C@@H]([C@H](NC(=O)Cc2ccccc2)C(N)=O)SC1(C)C	RF		cytopathic effect / MTT		0.59 µM
Cc1cc2nc(-c3ccc4c(n3)c(C3CCN(C5CN(O)C5)CC3)nn4C)sc2c(-c2ccc(Cl)cc2)c1[C@H](OC(C)(C)C)C(=O)O	IIIB		luminescence		0.011 µM
O=C(NCc1ccccc1)[C@H](OCc1ccccc1)[C@H](O)[C@@H](O)[C@@H](OCc1ccccc1)C(=O)N[C@H]1c2ccccc2C[C@H]1O			cytopathic effect		2.59 µM
Cc1cc2nc(-c3ccc4c(n3)c(C3CCN(C5COC5)CC3)cn4C)sc2c(-c2ccc(Cl)cc2)c1[C@H](OC(C)(C)C)C(=O)O	IIIB		luminescence		0.006 µM
CCc1c(Cc2cc(C)cc(C)c2)n(COCc2cn([C@H]3CC(n4cc(C)c(=O)[nH]c4=O)OC3CO)nn2)c(=O)[nH]c1=O	WILD TYPE		MTT		0.08 µM
c1cc(CN2CCCNCCNCCCNCC2)ccc1CN1CCCNCCNCCCNCC1	NL4-3		MTT		0.096 µM
CC(C)=CCC/C(C)=C/CC/C(C)=C/Cc1c(O)cc(C)cc1O					>38 µM
CC1=C[C@]23C(=O)[C@@H](C=C(CO)[C@@H](O)[C@]2(O)[C@H]1O)[C@H]1[C@@H](CC3C)C1(C)C	NL4-3		luminescence		>10 µM

The last 3 rows once more:

c1cc(CN2CCCNCCNCCCNCC2)ccc1CN1CCCNCCNCCCNCC1 ; strain or isolate: NL4-3 ; read by: MTT ; value: 0.096 µM
CC(C)=CCC/C(C)=C/CC/C(C)=C/Cc1c(O)cc(C)cc1O ; value: >38 µM
CC1=C[C@]23C(=O)[C@@H](C=C(CO)[C@@H](O)[C@]2(O)[C@H]1O)[C@H]1[C@@H](CC3C)C1(C)C ; strain or isolate: NL4-3 ; read by: luminescence ; value: >10 µM